# Values from PubChem BioAssay AID504761 (Drosophila RNAi Screening Center, 2011)
# Assay: 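Fly genes whose silencing reduces dengue virus type 2 infection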 (primary screen)
# Cells: D.Mel-2 cells from Drosophila
# Knock-down reagent: long dsRNA against Drosophila genes
# Treatment: infection with dengue virus type 2; dose and infection time not stated
# Measurement: 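Per well on two replicate plates, imaging gave the percent of cells positive for viral envelope protein, ranked by infection, and a nuclear count of cells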
# Scale: infection score: higher = more virus-infected cells; cell count: higher = more cells in the well
# Call rule: 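Very low infection ranking in both replicate wells (chance probability at most 0.065), then a retest showing infection dropped 1.5-fold or more at p below 0.05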
# Meaning of the calls: active = confirmed: knock-down lowers infection; inactive = not picked or not confirmed
# The deposit covers about 22,000 reagents; shown is an unselected part of those that have a named target and a result. Of all reagents, 116 (0.52%) were called active. 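Calls depend on retest data that are not deposited; infection was ranked per plate without normalising between plates; the unit of the infection score is not given.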 Raw values are not corrected between plates. The numbers tell different reagents against one gene apart. A plus sign joins genes that one reagent is predicted to hit. Reagent sequences are not shown. Not stated in the record: the amount of reagent, the time to read-out.
gene,dsRNA no.,"infection score, replicate 1","infection score, replicate 2","cell count, replicate 1","cell count, replicate 2",call
DCTN4-p62,1,29.4,27.2,5589,4345,inactive
DCTN4-p62,2,7.7,4.4,6143,6825,inactive
CG31313,1,4.28,3.2,6118,5753,inactive
Sas-6,1,3.69,,3385,269,inactive
mei-S332,1,13.7,28,5719,4988,inactive
CG17065,1,0.6,0.19,5853,5790,active
CG17065,2,16.3,3.02,6615,6551,inactive
pyr,1,7.37,1.82,5831,6279,inactive
Gr22c,1,1.39,0.98,6694,6409,inactive
Gr22c,2,2.84,4.63,6375,5706,inactive
CG34404,1,3.65,4.04,6404,1163,inactive
CG34404,2,22.3,25.3,5515,5589,inactive
CG34404,3,6.95,15.1,6243,6007,inactive
CG9003,1,7.56,3.78,6338,6429,inactive
lic,1,1.52,0.91,6693,6713,inactive
ttv,1,18.5,9.7,5986,6393,inactive
ttv,2,5.1,0.77,4961,6508,inactive
CG14692,1,5.05,1.55,5797,3221,inactive
Miga,1,1.15,1.69,6769,6570,inactive
Spn77Bb + Spn77Bc,1,15.3,0.43,4459,697,inactive
Spn77Bb + Spn77Bc,2,12.3,10.8,4742,5038,inactive
CheB42c,1,4.89,0.29,1921,691,inactive
CheB42c,2,11.2,32.6,6803,5797,inactive
CG12641 (retired record),1,2.25,7.35,6312,7003,inactive
CG3841,1,18,,2002,507,inactive
CG32192,1,1.96,1.51,560,6809,inactive
CG32192,2,4.96,13.8,6915,6249,inactive
piwi,1,14.2,8.63,6017,6282,inactive
Ccdc114,1,2.93,6.79,6340,6299,inactive
CG1896,1,1.44,1.21,6028,6108,inactive
CG33791 + CG12105 + CG18170,1,15.3,15.2,5287,1961,inactive
RabX2,1,3.01,8.92,6785,6649,inactive
ND-ACP,1,2.7,2.81,6382,5475,inactive
CG17026,1,3.53,3.22,5729,6141,inactive
CG17026,2,5.59,3.76,6210,6117,inactive
CG1628,1,29.8,16.3,6618,6811,inactive
cas,1,2.29,4.58,6190,6597,inactive
cas,2,7.55,10.5,5895,5953,inactive
CG14147,1,3.17,4.03,5808,6151,inactive
CG11626,1,7.64,2.32,6123,6889,inactive
GatC + PolG2,1,44,22.3,4895,5840,inactive
CG10486,1,1.06,3.44,6158,6025,inactive
Mal-A7,1,9.82,5.47,5660,6744,inactive
CG5194,1,7.19,5.51,6298,6909,inactive
CG4830,1,3.35,4.34,6517,6662,inactive
CG33116,1,21.8,11.1,6199,6712,inactive
CG34046 (retired record),1,4.1,4.16,6704,5836,inactive
CG34046 (retired record),2,18.6,8.62,5847,6403,inactive
Mon1,1,14.6,9.24,6628,6767,inactive
Mon1,2,5.32,3.68,6806,6188,inactive
CG13748,1,13.1,20.6,6626,4188,inactive
Ork1,1,9.02,6.41,6256,6587,inactive
CG4332,1,7.21,6.37,7049,6390,inactive
Polr2A,1,30.8,4.86,4437,4817,inactive
Polr2A,2,46.9,40,4480,3749,inactive
CG14645,1,6.86,23.9,6455,4528,inactive
Srp54,1,18.9,26.2,4582,4116,inactive
CG17325 + CG42305,1,7.05,5.99,6252,6490,inactive
